Results taken from US20240116946A1 (Gilead Sciences, Inc., priority 2022, published 2024).

Legend:
SARS-CoV-2-NLuc = assay: A549-hACE2 SARS-CoV2-NLuc 384-Well Assay; conditions: read-out: MPro EC50, A549-hACE2 cells, 2 days
Protocol: Example B. A549-hACE2 SARS-CoV2-NLuc 384-Well Assay
A549-hACE2 cell line was maintained in Dulbecco's Minimum Essential Medium (DMEM) (Corning, New York, NY, Cat #15-018CM) supplemented with 10% fetal bovine serum (FBS) (Hyclone, Logan, UT, Cat #SH30071-03), 1× Penicillin-Streptomycin-L-Glutamine (Corning, New York, NY, Cat #30-009-CI) and 10 μg/mL blasticidin (Life Technologies Corporation, Carlsbad, CA, Cat #A11139-03). Cells were passaged 2 times per week to maintain sub-confluent densities and were used for experiments at passage 5-20. SARS Coronavirus 2 recombinant with NanoLuc (SARS-CoV-2-NLuc) was obtained from University of Texas Medical Branch (Galveston, TX). Viral replication was determined in A549-hACE2 cells in the following manner.
Compounds were prepared in 100% DMSO in 384-well polypropylene plates (Greiner, Monroe, NC, Cat #784201) with 8 compounds per plate in grouped replicates of 4 at 10 serially diluted concentrations (1:3). The serially diluted compounds were transferred to low dead volume Echo plates (Labcyte, Sunnyvale, CA, Cat #LP-0200).
The test compounds were spotted to 384-well assay plates (Greiner, Monroe, NC, Cat #781091) at 200 nL per well using an Echo acoustic dispenser (Labcyte, Sunnyvale, CA). A549-hACE2 cells were harvested and suspended in DMEM (supplemented with 2% FBS and 1× Penicillin-Streptomycin-L-Glutamine) and seeded to the pre-spotted assay plates at 10,000 cells per well in 30 μL. SARS-CoV2-NLuc virus was diluted in DMEM (supplemented with 2% FBS and X Penicillin-Streptomycin-L-Glutamine) at 350,000 Infectious Units (IU) per m and 10 μL per well was added to the assay plates containing cells and compounds, for MOI 0.35. The assay plates were incubated for 2 days at 37° C. and 5% CO2. At the end of incubation, Nano-Glo reagent (Promega, Madison, WI, Cat #N1150) was prepared. The assay plates and Nano-Glo reagent were equilibrated to room temperature for at least 30 minutes. 40 μL per well of Nano-Glo reagent was added and the plates were incubated at room temperature for 30 minutes before reading the luminescence signal on an EnVision multimode plate reader (Perkin Elmer, Waltham, MA). Remdesivir was used as positive control and DMSO was used as negative control. Values were normalized to the positive and negative controls (as 000 and 100% replication, respectively) and data was fitted using non-linear regression analysis by Gilead's dose response tool. The EC50 value for each compound was defined as the concentration reducing viral replication by 50%.

[1] = target: recombinant SARS-CoV-2 Main protease (Mpro) (Severe acute respiratory syndrome coronavirus 2 (2019-nCoV) (SARS-CoV-2), UniProt P0DTD1); assay: Cov Mpro Biochemical IC50 Assay; conditions: read-out: MPro IC50
Protocol: Example A. Cov Mpro Biochemical IC50 Assay Description
This biochemical assay measured small molecule inhibitor IC50 values against recombinant SARS-CoV-2 Main protease (Mpro). Compounds from 100 μM to 5 nM in 3 fold dilutions were prepared and pre-incubated for 20 minutes while mixing at room temperature with 2× Mpro. The final Mpro concentration was 7.5 nM with the fluorogenic peptide substrate (DABCYL-KTSAVLQ/SGFRKME-EDANS) at its Km value of 40 μM in a reaction volume of 40 μM, Product formation was quantitated in kinetic mode every 2.5 minutes for 8 cycles by monitoring fluorescence at EX/EM wavelength of 340/460. Rates of reaction (slope with background subtracted) from inhibitor wells were normalized to DMSO wells and then curve fitted for IC50 using the PRISM algorithm: log(inhibitor) vs. normalized response—Variable slope The IC50 value for each compound was defined as the concentration reducing enzyme activity by 50%.

[2] = recombinant SARS-CoV-2 Mpro 7.5 nM, fluorogenic peptide substrate 40 μM
[3] = recombinant SARS-CoV-2 Mpro, fluorogenic peptide substrate

**Q.** What does the source list for `CCOc1cc(-c2cc(OC)c(F)cc2C#N)cc2[nH]c(=O)n(-c3cncc4ccccc34)c(=O)c12`?
**A.** EC50 (SARS-CoV-2-NLuc; SARS-CoV2-NLuc): 20 nM; IC50 [1, 2]: 15.1 nM

**Q.** Which EC50 (SARS-CoV-2-NLuc; SARS-CoV-2-NLuc) does the source give for `N#Cc1ccc(-c2cccc(Cl)c2-c2ccc3c(=O)n(-c4cncc5ccccc45)c(=O)[nH]c3c2)cn1` here?
**A.** Its EC50 is 51.7 nM.

**Q.** And the IC50 [1, 3]?
**A.** The IC50 was 29.1 nM.

**Q.** Which results are given for `O=C1COc2cc(-c3cccc(Cl)c3-c3ccc4c(=O)n(-c5cncc6ccccc56)c(=O)oc4c3)ccc2N1`?
**A.** EC50 (SARS-CoV-2-NLuc; SARS-CoV-2-NLuc): 22.4 nM; IC50 [1, 3]: 24.9 nM

**Q.** `COc1ccc(Cl)c(-c2cc3[nH]c(=O)n(-c4cncc5cc(Cl)c(F)cc45)c(=O)c3s2)c1` was tested. Which EC50 (SARS-CoV-2-NLuc; SARS-CoV2-NLuc) did it give?
**A.** Its EC50 is 218 nM.

**Q.** What about the IC50 [1, 2] of the same compound?
**A.** The IC50 was 52.3 nM.

**Q.** With `COc1ccc(Cl)c(-c2cc3[nH]c(=O)n(-c4cncc5cc(F)c(F)cc45)c(=O)c3s2)c1` as the compound, how does the EC50 (SARS-CoV-2-NLuc; SARS-CoV2-NLuc) read?
**A.** Its EC50 is 48 nM.

**Q.** What about the IC50 [1, 2] of the same compound?
**A.** The IC50 was 20.7 nM.

**Q.** With `COc1cc(-c2cc3[nH]c(=O)n(-c4cncc5[nH]c(=O)n(C)c45)c(=O)c3s2)c(Cl)cc1F` as the compound, how does the EC50 (SARS-CoV-2-NLuc; SARS-CoV2-NLuc) read?
**A.** Its EC50 is over 1000 nM.

**Q.** And the IC50 [1, 2]?
**A.** The IC50 was 15.7 nM.

Read-outs that look alike come from different tables or passages of the source.
